Measurements taken from publication PMC9778238, “How Discoloration of Porcine Cruor Hydrolysate Allowed the Identification of New Antifungal Peptides” (Foods, 2022).

Assay: Loss of peptide on discoloration (heme precipitation at pH 4.5), peak area in RP-UPLC-MS/MS
Conditions: variation of the peak area of the peptide between raw and discolored hydrolysate spectra; 100 = absent in discolored hydrolysate

Compared with “DPENFRLLGNVIVVVLA [porcine hemoglobin fragment β 100–116]”, “ERMFLGF [porcine hemoglobin fragment α 30–36]” is lower in “Decrease (%)” value: 38.0% for the first, 17.5% for the second.

First: SDLHAHKLRVDPVNF [porcine hemoglobin fragment α 84–98]
Second: LERMFLGF [porcine hemoglobin fragment α 29–36]
The “Decrease (%)” value of the first is lower: 12.0% for the first, 20.4% for the second.

Going from “VLTSKYR [porcine hemoglobin fragment α 135–141]” to “GAEALERMFLGFPT [porcine hemoglobin fragment α 25–38]”, the “Decrease (%)” value rises from 10.1% to 38.0%.

First: AAFQKVVAGVANA [porcine hemoglobin fragment β 129–141]
Second: SFGDLSNADAVMGNPKVK [porcine hemoglobin fragment β 45–62]
The “Decrease (%)” value of the first is higher: 100.0% for the first, 46.0% for the second.

First: FRLLGNVIVVVLARRLGHDFNPNVQ [porcine hemoglobin fragment β 104–128]
Second: ERMFLGFPTTKTYFPHF [porcine hemoglobin fragment α 30–46]
The “Decrease (%)” value of the first is higher: 100.0% for the first, 19.8% for the second.

First: HVDPENFRLLGNVIVVVLARRLGHDFNPNVQA [porcine hemoglobin fragment β 98–129, synthesized]
Second: RMFLGFPTTKTYFPHF [porcine hemoglobin fragment α 31–46]
The “Decrease (%)” value of the first is higher: 100.0% for the first, 22.6% for the second.

“PNVQAAFQKVVAGVANALA [porcine hemoglobin fragment β 125–143]” and “SNADAVMGNPKVKAH [porcine hemoglobin fragment β 50–64]” are the same in “Decrease (%)” value: 38.0% for the first, 38.0% for the second.

First: KLLSHCLLVTLAAHHPD [porcine hemoglobin fragment α 99–115]
Second: HVDPENFRLLGNVIV [porcine hemoglobin fragment β 98–112]
The “Decrease (%)” value of the first is higher: 38.0% for the first, 25.0% for the second.

Compared with “SFSDGLKHLDNLKGTFA [porcine hemoglobin fragment β 71–87]”, “LSDLHAHKLRVDPVNF [porcine hemoglobin fragment α 83–98]” is lower in “Decrease (%)” value: 46.0% for the first, 22.5% for the second.

Going from “GLWGKVNVDEVGGEALGRL [porcine hemoglobin fragment β 14–32]” to “FESFGDLSNAD [porcine hemoglobin fragment β 43–53]”, the “Decrease (%)” value rises from 49.9% to 100.0%.

For “CLLVTLAAHHPDDFNPS [porcine hemoglobin fragment α 104–120]”, the “Decrease (%)” value was 46.0%.
